“And” between values parts separate entries of the source, which are not always exact repeats. Identical values can stand only once.

This assay has as its target His6-RBD-2-His6 (pSRK120), refolded from inclusion bodies (SARS-CoV-2) (UniProt P0DTC2). Put plainly: SPR.

In the case of LCB1 miniprotein (designed binder), the Kd was 3.02 nM and 10 nM.
